“And” between values parts separate entries of the source, which are not always exact repeats. Identical values can stand only once.
Experiment: The potency ratio is the ratio between the CD50 value of the drug in the presence of an antagonist versus its CD50 value.
For `Cc1onc(O)c1C[C@H](N)C(=O)O.NS(=O)(=O)c1cccc2c3c(cc([N+](=O)[O-])c12)=CC(=O)C(=O)C=3`, the Potency ratio was 5.4.
For `NS(=O)(=O)c1cccc2c3c(cc([N+](=O)[O-])c12)=CC(=O)C(=O)C=3.O=C(O)C1=NO[C@H]2[C@@H]1CN[C@@H]2C(=O)O`, the Potency ratio was 3.6 and 1.3.
With `O=C(O)C1=NO[C@H]2[C@@H]1CN[C@@H]2C(=O)O.O=C(O)C1CN(CCCP(=O)(O)O)CCN1` (stereo unspecified) the Potency ratio was 2.4 and 3.4.
`Cc1onc(O)c1C[C@H](N)C(=O)O.O=C(O)C1CN(CCCP(=O)(O)O)CCN1` (stereo unspecified) showed a Potency ratio of 1.5.
Compound `C=C(C)[C@H]1CN[C@H](C(=O)O)[C@H]1CC(=O)O.O=C(O)C1CN(CCCP(=O)(O)O)CCN1` (stereo unspecified) has a Potency ratio of 2.2.
Compound `C=C(C)[C@H]1CN[C@H](C(=O)O)[C@H]1CC(=O)O.CC1=NN=C(c2ccc(N)cc2)c2cc3c(cc2C1)OCO3` has a Potency ratio of 7.2.
For `CC1=NN=C(c2ccc(N)cc2)c2cc3c(cc2C1)OCO3.O=C(O)C1=NO[C@H]2[C@@H]1CN[C@@H]2C(=O)O`, the Potency ratio was 2.1 and 4.4.
In the case of `O=C(O)C1=NO[C@H]2CN[C@H](C(=O)O)[C@@H]12.O=C(O)C1CN(CCCP(=O)(O)O)CCN1` (stereo unspecified), the Potency ratio is reported as 1.4.
For `CC1=NN=C(c2ccc(N)cc2)c2cc3c(cc2C1)OCO3.O=C(O)C1=NO[C@H]2CN[C@H](C(=O)O)[C@@H]12`, the Potency ratio was 18.5 and 6.2.
`CC1=NN=C(c2ccc(N)cc2)c2cc3c(cc2C1)OCO3.Cc1onc(O)c1C[C@H](N)C(=O)O` gave a Potency ratio of 5.5.
For `C=C(C)[C@H]1CN[C@H](C(=O)O)[C@H]1CC(=O)O.NS(=O)(=O)c1cccc2c3c(cc([N+](=O)[O-])c12)=CC(=O)C(=O)C=3`, the Potency ratio was 14.6.
